Drawing on patent US6369208B1, “Capped synthetic RNA, analogs, and aptamers” (Merck & Co., Inc., priority 1995, dated 2002), this text covers IC50 and Kd for one substance.

By UniProt entry, the sequences of proteins in these tests, tags left out. Where a name states a change or a piece, a line headed by the entry shows the natural chain unless it says otherwise.
UniProt P03428: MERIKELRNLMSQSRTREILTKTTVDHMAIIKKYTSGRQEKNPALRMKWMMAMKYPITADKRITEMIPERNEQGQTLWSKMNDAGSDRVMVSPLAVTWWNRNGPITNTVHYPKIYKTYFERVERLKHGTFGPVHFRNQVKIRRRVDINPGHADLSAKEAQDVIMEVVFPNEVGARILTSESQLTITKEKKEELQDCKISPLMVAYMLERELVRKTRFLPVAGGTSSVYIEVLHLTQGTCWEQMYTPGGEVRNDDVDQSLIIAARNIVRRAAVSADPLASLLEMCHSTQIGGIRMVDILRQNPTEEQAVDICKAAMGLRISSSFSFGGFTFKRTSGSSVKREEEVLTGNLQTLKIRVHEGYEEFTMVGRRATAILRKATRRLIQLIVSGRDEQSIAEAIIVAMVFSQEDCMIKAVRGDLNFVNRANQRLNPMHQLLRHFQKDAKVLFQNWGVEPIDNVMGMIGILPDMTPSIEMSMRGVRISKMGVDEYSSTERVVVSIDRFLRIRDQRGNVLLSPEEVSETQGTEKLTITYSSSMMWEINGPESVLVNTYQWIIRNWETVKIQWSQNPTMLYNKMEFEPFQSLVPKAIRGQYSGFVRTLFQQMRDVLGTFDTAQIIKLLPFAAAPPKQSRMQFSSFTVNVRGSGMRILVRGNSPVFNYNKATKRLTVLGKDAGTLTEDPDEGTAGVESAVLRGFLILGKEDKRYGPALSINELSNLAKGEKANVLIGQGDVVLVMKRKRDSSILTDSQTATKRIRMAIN

The target in experiment [1] is T1, influenza endonuclease (Influenza A virus, UniProt P03428+P03433).
Experiment [2] addresses T1, influenza endonuclease. This is another data set of the same source.

With “m^7GpppG(2′-OMe)UAUUAAUA(3′-dA)-3′ [SEQ.ID.NO.:3]”, on influenza endonuclease [1], the half-inhibitory concentration (IC50) (as a rule, the concentration needed to halve the response being measured) was 0.083 nM. For the same substance, at influenza endonuclease [2], binding was put at a Kd of 0.17 nM.
